Laboratory results taken from paper PMC9563714.

Target: T1, Vfr (Pseudomonas aeruginosa UCBPP-PA14) (UniProt P55222)
T1 sequence (looked up, limits assumed): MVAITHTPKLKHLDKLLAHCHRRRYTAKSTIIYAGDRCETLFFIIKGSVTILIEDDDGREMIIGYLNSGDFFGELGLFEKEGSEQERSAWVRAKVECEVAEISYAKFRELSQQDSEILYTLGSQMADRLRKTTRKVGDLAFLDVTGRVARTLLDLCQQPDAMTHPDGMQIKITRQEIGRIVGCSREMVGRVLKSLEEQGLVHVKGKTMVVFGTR
Test: EMSA
Conditions: + cAMP (10 uM in legend, 20 uM in Methods); recombinant protein; protein details: C-terminal His (pET-28b); label: biotin 3' end

“AACAGCCGCCGGGTTCGCTGCCGTCTAGGCAGAACCACCCTCCCCATCCCACTACCAAACATCCGAATATAAAGTTCCTACCCCGCCCGCCAGCCTCGCCCGTCCACGACAATGTGCCTCGCTTGGAAGCTCACGCTCCTCACACAGACGAAAACGGGGTAGCGGCAATCGGCCATATCCGCTAAACAGTTGCCTTGGCGCAGAATTCGATAGATCCGATAGGGACAGGCCACGGTCAAC (double strand) [Pcas1]”: binds.

Construct, isoform or probe ends are uncertain for at least one entry. Protein sequences can lack the tags named with them.
